Literature values as cited in patent US5976535A, “Pretargeting protocols for the enhanced localization of cytotoxins to target sites and cytotoxic combinations useful therefore” (NeoRx Corporation, priority 1995, dated 1999).

Settings: palytoxin with preserved free terminal amino group; cited from earlier work

palytoxin
toxicity relative to palytoxin derivatives lacking a free amine: approximately 500 fold
